Measurements reported in PubChem BioAssay AID504761 (Drosophila RNAi Screening Center, 2011).

Assay: 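Insect host genes that dengue virus relies on to spread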 (primary screen)
System: D.Mel-2 cells from Drosophila
Knock-down reagent: long dsRNA against Drosophila genes
Treatment: infection with dengue virus type 2; dose and infection time not stated
Measurement: 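Per well on two replicate plates, imaging gave the percent of cells positive for viral envelope protein, ranked by infection, and a nuclear count of cells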
Scale: infection score: higher = more virus-infected cells
Rule for the call: 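Very low infection ranking in both replicate wells (chance probability at most 0.065), then a retest showing infection dropped 1.5-fold or more at p below 0.05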
Calls: active = confirmed: knock-down lowers infection; inactive = not picked or not confirmed
The screen tested about 22,000 reagents; this is an unselected part of those that have a named target and a result. In the full data, 116 (0.52%) are marked active. 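Calls depend on retest data that are not deposited; infection was ranked per plate without normalising between plates; the unit of the infection score is not given.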 A number with no mark means an inactive call. A plus sign joins genes that one reagent is predicted to hit. Not all columns of the deposit are shown. No sequences are given here. The record does not give: the amount of reagent, the time to read-out.

Silencing of Sr-CIV (Scavenger receptor class C, type IV) [DRSC00575] gave: infection score, replicate 1 = 3.5.
Against Sr-CIV (Scavenger receptor class C, type IV) [DRSC24930], the values are infection score, replicate 1 = 3.44.
Silencing of Bcat (Branched chain amino acid transaminase) [DRSC19756] came out at: infection score, replicate 1 = 11.3.
Bcat (Branched chain amino acid transaminase) [DRSC28324] gave infection score, replicate 1 = 20.4.
CG14411 [DRSC19597] showed infection score, replicate 1 = 1.59.
For CG14411 [DRSC29396] the deposit lists infection score, replicate 1 = 6.68.
After knock-down of Fatp2 (Fatty acid transport protein 2) [DRSC03971], the record shows infection score, replicate 1 = 2.82.
For Fatp2 (Fatty acid transport protein 2) [DRSC04178], the entry reads infection score, replicate 1 = 5.05.
With knock-down of Fatp2 (Fatty acid transport protein 2) [DRSC04330] the results were infection score, replicate 1 = 9.45.
CG13562 [DRSC04200] gave infection score, replicate 1 = 12.3.
For CG13562 [DRSC28501] the deposit lists infection score, replicate 1 = 9.61.
After knock-down of CG14441 [DRSC24967], the screen gave infection score, replicate 1 = 0.98.
twz (tiwaz) [DRSC04069] showed infection score, replicate 1 = 5.48.
twz (tiwaz) [DRSC25832] showed infection score, replicate 1 = 1.33.
Against Lpin (Lipin) [DRSC07241] the deposit lists infection score, replicate 1 = 7.1.
After knock-down of Or9a (Odorant receptor 9a) [DRSC18692], the screen gave infection score, replicate 1 = 4.7.
Or9a (Odorant receptor 9a) [DRSC28277] gave infection score, replicate 1 = 9.22.
CG32278 + CG14963 [DRSC22203] scored infection score, replicate 1 = 3.6.
Depletion of CG42720 (retired record) [DRSC22549] came out at: infection score, replicate 1 = 2.24.
Silencing of CG42720 (retired record) [DRSC29811] came out at: infection score, replicate 1 = 7.33.
qkr58E-1 (quaking related 58E-1) [DRSC04709] gave infection score, replicate 1 = 8.86.
For qkr58E-1 (quaking related 58E-1) [DRSC23841] the deposit lists infection score, replicate 1 = 4.2.

Records listed so far whose target name begins with F or f:
Fatp2 (Fatty acid transport protein 2) [DRSC03971] — infection score, replicate 1 = 2.82
Fatp2 (Fatty acid transport protein 2) [DRSC04178] — infection score, replicate 1 = 5.05
Fatp2 (Fatty acid transport protein 2) [DRSC04330] — infection score, replicate 1 = 9.45
